Reference: PMC8999638, “Identification of Entry Inhibitors against Delta and Omicron Variants of SARS-CoV-2” (International Journal of Molecular Sciences, 2022)

Biological target: RBD-ACE2 attachment (RBD of viral spike protein and ACE2 receptor) (Severe acute respiratory syndrome coronavirus 2, UniProt P0DTC2)
Assay: cell-based
Design: species or system SARS-CoV-2; human

Structure (SMILES): O=C1CCc2ccc(OCCCCN3CCN(c4cccc(Cl)c4Cl)CC3)cc2N1 [Aripiprazole]
- Positive Screening RBD Attachment Assay Dose Response: Yes
- inhibition at 20 µM (HeLa, read-out: Positive Screening RBD Attachment Assay % Inhibition (20 μM)): 56%
- inhibition at 100 µM (HeLa, read-out: Positive Screening RBD Attachment Assay % Inhibition (100 μM)): 71%
